As usually defined, the Km is the substrate concentration at which the rate is half of its maximum. In general, kcat refers to the number of substrate molecules converted per active site and unit of time at saturation. Usually kcat/Km stands for the second-order rate constant that governs catalysis at low substrate concentration.

This passage reports Km, kcat and kcat/Km results from publication PMC3590139, “Isocitrate Dehydrogenase from Streptococcus mutans: Biochemical Properties and Evaluation of a Putative Phosphorylation Site at Ser102” (PLoS ONE, 2013).

In data set [1] the test system is O=C(O)CC(C(=O)O)C(O)C(=O)O. Nature of the data set: purified protein. As to conditions: saturating NAD+, 35 mM Tris-HCl pH 7.5, 3.5 mM MnCl2, 37 °C.
The subject of data set [2] is NC(=O)c1ccc[n+]([C@@H]2O[C@H](COP(=O)(O)OP(=O)(O)OC[C@H]3O[C@@H](n4cnc5c(N)ncnc54)[C@H](O)[C@@H]3O)[C@@H](O)[C@H]2O)c1. Nature of the data set: purified protein. Particulars: saturating DL-isocitrate, 35 mM Tris-HCl pH 7.5, 3.5 mM MnCl2, 37 °C.

In the case of “SmIDH (Streptococcus mutans UA159; S102A)”, in data set [1], the Km worked out at 148 µM, the kcat was determined as 3.3 s⁻¹ and the specificity constant (kcat/Km) was found to be 22000 M⁻¹ s⁻¹. Moreover, in data set [2], the Km was determined as 246 µM, the kcat came out at 3 s⁻¹ and the catalytic efficiency (kcat/Km) came out at 10000 M⁻¹ s⁻¹.

As to “SmIDH (Streptococcus mutans UA159; S102G)”, in data set [1], the Km was 143 µM, the kcat was 4 s⁻¹ and the kcat/Km came to 28000 M⁻¹ s⁻¹. For the same substance, in data set [2], the Km is 295 µM, the turnover number (kcat) was 9.1 s⁻¹ and the kcat/Km was 30000 M⁻¹ s⁻¹.

Consider “SmIDH (Streptococcus mutans UA159; S102T)”, for which, in data set [1], the Michaelis-Menten constant (Km) came out at 150 µM, the catalytic constant (kcat) is 25 s⁻¹ and the catalytic efficiency (kcat/Km) was determined as 170000 M⁻¹ s⁻¹. Further, in data set [2], the Km is 350 µM, the catalytic constant (kcat) came to 59 s⁻¹ and the catalytic efficiency (kcat/Km) amounted to 170000 M⁻¹ s⁻¹.

Consider “SmIDH (Streptococcus mutans UA159; S102Y)”, for which, in data set [1], the Km amounted to 385 µM, the kcat turned out to be 1.5 s⁻¹ and the catalytic efficiency (kcat/Km) came to 4000 M⁻¹ s⁻¹. Also, in data set [2], the Michaelis constant (Km) was 1560 µM, the kcat was found to be 3.5 s⁻¹ and the specificity constant (kcat/Km) was found to be 2000 M⁻¹ s⁻¹.
